Results of unrelated studies side by side (data: NIAID ChemDB).

All rows: growth or infection tests

Inhibition is in % at the dose shown (toxicity tests: loss of growth or viability). Fold resistance has wild type as its base. Zone: diameter of growth inhibition. MIC50, MIC90 and the like: level of inhibition, or share of isolates inhibited. a–b is a range or a potency band. Neighbouring rows are from separate reports. Blank or dashed fields: not listed here. ECn: concentration that inhibits the pathogen or its effect by n%.

compound | mutations | tested at | setting | cells | strain | endpoint | read by | organism | value
OC[C@H]1O[C@@H](n2c(Br)nc3cc(Cl)c(Cl)cc32)[C@H](O)[C@@H]1O | - | - | - | HFF | - | EC50 | plaque count | Rat cytomegalovirus | 26 µM
O=c1oc2ccc(F)cc2c(=S)n1-c1ccc(C(F)(F)F)cc1 | - | - | 14 d | - | 6509/96 | MIC | - | Mycobacterium kansasii | 8 µM
Oc1ccccc1N=Cc1ccccc1 | - | - | - | - | L24/01 | MIC99 | - | Cryptococcus gattii | 5.7 µg/mL
CC(C)Nc1nc2cc(Cl)c(Cl)cc2n1[C@H]1O[C@@H](CO)[C@H](O)[C@@H]1O | - | - | - | MRC-5 | - | EC50 | virus yield | Human cytomegalovirus | 18 µM
Nc1nc2c(ncn2COCCO)c(=O)[nH]1 | - | 10 µg/mL | - | HELF | KANNO | inhibition | plaque count | Varicella zoster virus | 100%
Cc1[nH]n(C(=O)c2sc3ccc(Cl)cc3c2Cl)c(=O)c1N=Nc1ccc(Cl)cc1Cl | - | 40 µg/mL | - | - | ATCC 27853 | zone | agar diffusion / agar | Pseudomonas aeruginosa | 18 mm
O=[N+]([O-])c1ccc(C=Nc2ccccc2O)cc1 | - | - | - | - | 135L/03 | MIC99 | - | Cryptococcus gattii | 16 µg/mL
[N-]=[N+]=N[C@H]1C[C@@H](n2cnc3c(N)ncnc32)[C@H](O)[C@@H]1O | - | - | - | CV-1 | - | EC50 | neutral red | Measles virus | 0.5 µg/mL
Nc1nc2c(ncn2COC(CO)CO)c(=O)[nH]1 | - | - | - | - | TOWNE | EC50 | virus yield | Human cytomegalovirus | <3.1 µM
CC(C)Nc1nc2cc(Cl)c(Cl)cc2n1[C@H]1O[C@@H](CO)[C@H](O)[C@@H]1O | - | - | - | HFF | - | EC50 | plaque count | Rhesus cytomegalovirus | 48 µM
Cc1nsc(C)c1C#N | - | - | - | HEP-2 | TYPE B1 | EC50 | plaque count | Coxsackie virus | >1000 µM
Nc1ncnc2c1ncn2[C@@H]1C[C@H](S)[C@@H](O)[C@H]1O | - | - | - | CV-1 | - | EC50 | neutral red | Measles virus | >100 µg/mL
CC(=O)N[C@H]1[C@H]([C@H](O)[C@H](O)CO)OC(C(=O)O)=C[C@@H]1N=C(N)N | - | - | - | MDCK | H1N1 A/Bayern/09/95 | EC50 | - | Influenza A virus | 3.4 µM
CCc1nc2ccc(Cl)cn2c1C(=O)NCc1ccc(N2CCN(c3ccc(OCC(F)(F)F)cc3)[C@@H](C)C2)c(F)c1 | - | 0.011 µM | - | - | - | inhibition | fluorescence | Mycobacterium avium | 85%
C/C=C/C/C=C/CCC(=O)[C@H]1O[C@H]1C(N)=O | - | - | - | - | UB1005/PJTB3 | MIC | - | Escherichia coli | 80 µg/mL
CC1CCC(C(=O)N(c2cc(C#CC(C)(C)C)sc2C(=O)O)C2CCC(O)CC2)CC1 | M423I | - | - | Huh7 | H77 (GT1a) | fold resistance | luciferase | Hepatitis C virus | 10.5
Cc1ccn2nc(C)c(C(=O)NCc3ccc(N4CCN(c5ccc(OC(F)(F)F)cc5)[C@H](C)C4)c(F)c3)c2c1.Cl | - | 0.1 µM | - | - | - | inhibition | fluorescence | Mycobacterium avium | 85%
COc1ccc(-n2c(C(=O)NCc3ccc(F)cc3)c3n(c2=O)CCN(C(=O)c2ccc(Br)c(Cl)c2)C3)cc1 | - | - | - | HepG2.117 | - | EC50 | PCR | Hepatitis B virus | 0.1–0.5 µM
Oc1ccccc1N=Cc1ccc(F)cc1 | - | - | - | - | 23/10993 | MIC99 | - | Cryptococcus gattii | 5.7 µg/mL
Cc1cn([C@@H]2O[C@H](CO)[C@@H](O)[C@@H]2O)c(=O)[nH]c1=O | - | 1 µg/mL | - | HELF | Ohtomo | inhibition | plaque count | Varicella zoster virus | 100%
CCN=C1NC2C(OC(CO)C(O)C2O)S1 | - | 10 µM | - | HEK 293 | - | inhibition | flow cytometry | Kaposi sarcoma virus | 44%
CCC(CC)[C@H](NC(C)=O)[C@@H]1C[C@@H](C(=O)O)C[C@H]1N=C(N)N | - | - | - | MDCK | HONG KONG/5/72 | EC50 | - | Influenza B virus | 2.4 µM
S=c1oc2ccc(Br)cc2c(=S)n1-c1ccc(Cl)c(Cl)c1 | - | - | 14 d | - | My 235/80 | MIC | - | Mycobacterium kansasii | 4 µM
CC(=O)N1N=C(c2sc3ccc(Cl)cc3c2Cl)OC1c1cc2cc(C)ccc2nc1Cl | - | 40 µg/mL | - | - | ATCC 27853 | zone | agar diffusion / agar | Pseudomonas aeruginosa | 18 mm
CCC(C)CC(C)CCCCCCCCC(=O)N[C@H]1C[C@@H](O)[C@H](NCCN)NC(=O)[C@@H]2[C@@H](O)CCN2C(=O)[C@H]([C@H](O)CCN)NC(=O)[C@H]([C@H](O)[C@@H](O)c2ccc(O)cc2)NC(=O)[C@@H]2C[C@@H](O)CN2C(=O)[C@H]([C@@H](C)O)NC1=O | - | - | - | - | CBS 11542 | MIC | broth dilution | Cryptococcus gattii | 16 µg/mL
Nc1nc2c(ncn2COC(CO)CO)c(=O)[nH]1 | - | - | - | MRC-5 | C8302 | EC50 | hybridisation | Human cytomegalovirus | 0.3 µM
N#Cc1ccc(CSc2ncnc3c2ncn3[C@@H]2O[C@H](CO)[C@@H](O)[C@H]2O)cc1 | - | 10 µM | - | - | RH (WILD TYPE) | inhibition | - | Toxoplasma gondii | 54.8%
O=c1[nH]c(=O)n([C@H]2C[C@H](O)[C@@H](CO)O2)cc1Br | - | 0.012 µg/mL | - | ME | - | inhibition | hybridisation | Murine polyoma virus | 0%
CCc1cn([C@@H]2O[C@H](CO)[C@@H](O)[C@@H]2O)c(=O)[nH]c1=O | - | 1000 µg/mL | - | HELF | Kawaguchi | inhibition | plaque count | Varicella zoster virus | 86%
Cc1ccn2c(C(=O)NCc3ccc(N4CCC(c5ccc(OC(F)(F)F)cc5)CC4)c(F)c3)c(C)nc2c1.Cl | - | 0.12 µM | - | - | - | inhibition | fluorescence | Mycobacterium avium | 85%
C=C(C)C1COc2cc(OC)c3c(c2C1)OC(c1ccccc1)=CC3OC | - | 25 µM | - | LLC-MK2 | Type 2/Mexican isolate | inhibition | plaque count | Dengue virus | 59.1%
Nc1nc2c(ncn2COC(CO)CO)c(=O)[nH]1 | - | - | - | HFF | - | EC50 | plaque count | Rat cytomegalovirus | 31 µM
CCOC(=O)c1c(C)nc(NCCCNc2ccnc3cc(Cl)ccc23)nc1-c1ccccc1 | - | - | - | - | 1913 ER | MIC99 | - | Cryptococcus gattii | 8 µg/mL
CC(=O)N[C@H]1[C@H]([C@H](O)[C@H](O)CO)OC(C(=O)O)=C[C@@H]1N=C(N)N | - | - | - | MDCK | H1N1 A/TEXAS/36/91 | EC50 | - | Influenza A virus | 0.22 µM
CC(N)C12CC3CC(CC(C3)C1)C2 | - | - | - | MDCK | H3N2 10 french isolates | EC50 | ELISA | Influenza A virus | 9.3 µg/mL
C=CCc1ccc(O)c(OC)c1 | - | - | - | - | 3167 | MIC90 | turbidity | Candida tropicalis | 475 µg/mL
Nc1ncnc2c1c(Br)cn2COCCO | - | - | - | GPE | Lymphotropic | EC50 | plaque count | Guinea pig herpesvirus | 35.5 µg/mL
CCC(CC)O[C@@H]1C=C(C(=O)O)C[C@H](N)[C@H]1NC(C)=O | - | - | - | MDCK | Isolate G62 | EC50 | plaque count | Influenza B virus | 0.04 µg/mL
O=c1[nH]c(=O)n([C@H]2C[C@H](O)[C@@H](CO)O2)cc1/C=C/Br | - | 0.01 µg/mL | - | HELF | HIRAI | inhibition | plaque count | Varicella zoster virus | 100%
CSc1nsc(SC)c1C#N | - | - | - | L929 | Encephalomyocarditis virus | EC50 | plaque count | Encephalomyocarditis virus | >12 µM
CCC(CC)[C@H](NC(C)=O)[C@@H]1[C@H](O)[C@@H](C(=O)O)C[C@H]1N=C(N)N | - | - | - | MDCK | H3N2 A/X-31 | EC50 | - | Influenza A virus | 0.01 µM
Nc1ccc(S(=O)(=O)c2ccc(N)cc2)cc1 | - | - | - | - | 1408 | MIC | - | Mycobacterium avium complex | 64 µg/mL
COc1cc(C2OC(c3sc4ccc(Cl)cc4c3Cl)=NN2C(C)=O)ccc1O | - | 40 µg/mL | - | - | ATCC 27853 | zone | agar diffusion / agar | Pseudomonas aeruginosa | 20 mm
O=C(NCc1ccccc1)c1c2n(c(=O)n1-c1ccc3[nH]ncc3c1)CCN(C(=O)c1ccc(Br)c(Cl)c1)C2 | - | - | - | HepG2.117 | - | EC50 | PCR | Hepatitis B virus | 0.5–5 µM
Cc1[nH]n(C(=O)c2sc3ccc(Cl)cc3c2Cl)c(=O)c1N=Nc1ccccc1[N+](=O)[O-] | - | 40 µg/mL | - | - | ATCC 27853 | zone | agar diffusion / agar | Pseudomonas aeruginosa | 11 mm
Nc1ncnc2c1ncn2[C@@H]1CC[C@@H](O)[C@H]1O | - | - | - | CV-1 | TN1994 | EC50 | neutral red | Measles virus | 0.1 µg/mL
Nc1nc2c(ncn2COC(CO)CO)c(=O)[nH]1 | - | 30 µM | - | HFF | AD169 | inhibition | hybridisation | Cytomegalovirus | 96%
C=Cc1cn([C@@H]2O[C@H](CO)[C@@H](O)[C@@H]2O)c(=O)[nH]c1=O | - | 0.1 µg/mL | - | HELF | Asahikawa | inhibition | plaque count | Varicella zoster virus | 14%
O=c1oc2ccc(Cl)cc2c(=S)n1-c1cccc(F)c1 | - | - | 14 d | - | My 235/80 | MIC | - | Mycobacterium kansasii | 16 µM
C[C@@H](c1ncncc1F)[C@](O)(Cn1cncn1)c1ccc(F)cc1F | - | - | - | - | - | MIC90 | broth dilution | Aspergillus lentulus | 2 µg/mL
S=c1oc2ccc(Br)cc2c(=S)n1-c1ccc(Br)cc1 | - | - | 21 d | - | My 235/80 | MIC | - | Mycobacterium kansasii | 4 µM
Nc1ncnc2c1ncn2[C@@H]1C[C@H](NC=O)[C@@H](O)[C@H]1O | - | - | - | HFF | - | EC50 | - | Punta Toro virus | >100 µg/mL
CCc1nc2cc(F)ccn2c1C(=O)NCc1cc(F)c(N2CCN(c3ccc(OC(F)(F)F)cc3)[C@@H](C)C2)c(F)c1.Cl | - | 0.0022 µM | - | - | - | inhibition | fluorescence | Mycobacterium avium | 85%
O=C(N[C@@H](C(=O)N1CCC[C@H]1c1ncc(-c2ccc(-c3ccc(-c4cnc([C@@H]5CCCN5C(=O)[C@H](NC(=O)C5CC5)c5ccccc5)s4)cc3)cc2)s1)c1ccccc1)C1CC1 | Y93C | - | - | Huh7.5 | genotype 1b | fold resistance | luciferase / reporter gene | Hepatitis C virus | 52
C[C@@H](NC(=O)c1c2n(c(=O)n1-c1ccc(OC3CC3)cc1)CCN(C(=O)c1ccc(Br)c(Cl)c1)C2)c1ccc(OC2COC2)cc1F | - | - | - | HepG2.117 | - | EC50 | PCR | Hepatitis B virus | 0.1–0.5 µM
CSc1nsc(-c2ccc(Cl)cc2)c1C#N | - | - | - | HEP-2 | TYPE 2 | EC50 | plaque count | Adenovirus | >5 µM
Nc1ncnc2c1ncn2[C@@H]1C=C[C@@H](O)[C@H]1O | - | - | - | CV-1 | Edmonston | EC50 | cytopathic effect | Measles virus | >64 µg/mL
CC(C)Oc1ccc(-n2c(C(=O)N[C@@H](C)c3ccccc3)c3n(c2=O)CCN(C(=O)c2ccc(Br)c(Cl)c2)C3)cc1 | - | - | - | HepG2.117 | - | EC50 | PCR | Hepatitis B virus | 0.1–0.5 µM
OC[C@H]1O[C@@H](n2cnc3c(SCc4ccc(Cl)cc4Cl)ncnc32)[C@H](O)[C@@H]1O | - | 25 µM | - | - | RH adenosine kinase-deficient | inhibition | - | Toxoplasma gondii | 0%
CCOC(=O)c1c(C)nc(OCCCNc2ccnc3cc(Cl)ccc23)nc1-c1ccccc1 | - | - | - | - | 135L/03 | MIC99 | - | Cryptococcus gattii | 8 µg/mL
CC(=O)Oc1ccccc1C(=O)O.C[C@@H]1[C@H](O)[C@@H](C)/C=C/C=C/C=C/C=C/C=C/C=C/C=C/[C@H](O[C@@H]2O[C@H](C)[C@@H](O)[C@H](N)[C@@H]2O)C[C@@H]2O[C@](O)(C[C@@H](O)C[C@@H](O)[C@H](O)CC[C@@H](O)C[C@@H](O)CC(=O)O[C@H]1C)C[C@H](O)[C@H]2C(=O)O | - | 32 µg/mL | - | - | AF293 | inhibition | broth dilution | Aspergillus fumigatus | 99.43%
N#Cc1csnc1-c1ccccc1 | - | - | - | HEP-2 | TYPE B1 | EC50 | plaque count | Coxsackie virus | >100 µM
[2H]c1c(C([2H])([2H])[2H])c([2H])n2c(C(=O)NCc3ccc(-c4ccc(C(F)(F)F)cc4)cc3)c(C)nc2c1[2H] | - | 0.0028 µM | - | - | - | inhibition | fluorescence | Mycobacterium avium | 85%
CC1(C)N=C(N)N=C(N)N1OCCCOc1cc(Cl)c(Cl)cc1Cl | - | - | - | - | FAR | MIC | - | Mycobacterium avium complex | ≤0.5 µg/mL
Nc1ncnc2c1ncn2[C@@H]1C[C@H](N)[C@@H](O)[C@H]1O | - | - | - | CV-1 | Edmonston | EC50 | neutral red | Measles virus | 40 µg/mL
COc1ccc(-n2c(C(=O)NCc3ccc(OC(F)(F)F)cc3)c3n(c2=O)CCN(C(=O)c2ccc(Br)c(Cl)c2)C3)cc1 | - | - | - | HepG2.117 | - | EC50 | PCR | Hepatitis B virus | 0.1–0.5 µM
COc1cc(C2OC(c3sc4ccc(Cl)cc4c3Cl)=NN2C(C)=O)cc(OC)c1OC | - | 40 µg/mL | - | - | ATCC 27853 | zone | agar diffusion / agar | Pseudomonas aeruginosa | 18 mm
O=c1oc2ccc(F)cc2c(=S)n1-c1ccc(Cl)c(Cl)c1 | - | - | 21 d | - | 6509/96 | MIC | - | Mycobacterium kansasii | 2 µM
CSc1nsc(-c2ccc(C)cc2)c1C#N | - | - | - | HEP-2 | TYPE 2 | EC50 | plaque count | Adenovirus | >18 µM
CC(=O)Nc1ccc(N=Nc2c(C)[nH]n(C(=O)c3sc4ccc(Cl)cc4c3Cl)c2=O)cc1 | - | 40 µg/mL | - | - | ATCC 27853 | zone | agar diffusion / agar | Pseudomonas aeruginosa | 15 mm